From PubChem BioAssay AID1706 (The Scripps Research Institute Molecular Screening Center, 2009)
The entries are a selection whose mix differs from that of the whole data set. Activity calls are given as the source filed them. Cut-off read from the data, not from the text of the source: active = inhibition above about 12%; inactive = the rest.

Biological target: Replicase polyprotein 1ab (Severe acute respiratory syndrome coronavirus) (UniProt P0C6X7)
Assay: SARS-CoV 3CLpro protease inhibitors, primary screen, biochemical, quenched FRET (AID 1706)
Conditions: recombinant SARS-CoV 3CLpro, quenched FRET peptide cleavage; at 6 µM; stronger effect = higher value

Row | Structure (SMILES) | inhibition
1 | CCC(=O)N1C2C3N(C(=O)CC)C1C1N(C(=O)CC)C(C(N1C(=O)CC)N3C(=O)CC)N2C(=O)CC | inactive: 2.4%
2 | O=C(OC1CN2CCC1CC2)c1ccccc1 (stereo not given) | inactive: 0.26%
3 | CCNC(=S)/N=C(\N)N[N+](=O)[O-] | inactive: 0.98%
4 | O=C(NC1CCS(=O)(=O)C1)NP(=S)(Oc1ccccc1)Oc1ccccc1 (stereo not given) | inactive: 5.21%
5 | CCOC(=O)NC(Sc1ccccc1)C(Cl)(Cl)Cl (stereo not given) | inactive: 5.16%
6 | Cc1ccc(NP(=O)(Oc2cccc(C)c2)Oc2cccc(C)c2)nc1 | inactive: -2.61%
7 | c1ccc(-c2nn[nH]n2)c(-c2nn[nH]n2)c1 | inactive: 4.34%
8 | CC(=O)Nc1ccc(Oc2c([N+](=O)[O-])cc([N+](=O)[O-])cc2[N+](=O)[O-])cc1 | inactive: 1.86%
9 | CC(=O)Nc1ccc([As](=O)(O)O)c(O)c1 | inactive: 4.51%
10 | CC(=O)c1ccc(N2CC2c2ccncc2)cc1 (stereo not given) | inactive: -3.12%
11 | CC(C)(C)C(=O)NC(Sc1ccccc1)C(Cl)(Cl)Cl (stereo not given) | inactive: 7%
12 | CCOc1ccc(C2=NCC(CBr)S2)cc1 (stereo not given) | inactive: -3.54%
13 | O=P1(Nc2nc3ccc(Cl)cc3s2)COc2ccccc2O1 (stereo not given) | inactive: 0.78%
14 | CCOP(=O)(Nc1cccc2ccccc12)OCC | inactive: 1.98%
15 | COc1cc(C2NCCC3(OCCO3)C2(C)C)cc(OC)c1OC (stereo not given) | inactive: 0.17%
16 | CCCOP(=S)(Nc1nc(N)cc(=O)[nH]1)OCCC | inactive: 0.39%
17 | Nc1cccc2c([As](=O)(O)O)cccc12 | inactive: -2.22%
18 | Cc1ccc(NCCc2c([N+](=O)[O-])cc([N+](=O)[O-])cc2[N+](=O)[O-])cc1 | inactive: -0.33%
19 | O=[As](O)(c1cccc(O)c1)c1cccc(O)c1 | inactive: -0.4%
20 | Cc1cccc(OCC(=O)OC2CN3CCC2CC3)c1 (stereo not given) | inactive: 4.74%
21 | CS(=O)(=O)c1ccc(Cl)c(NC(=O)COC(=O)C(O)(c2ccccc2)c2ccccc2)c1 | inactive: -0.4%
22 | COc1cc(C(=O)NCC2(N3CCOCC3)CCCCC2)cc(Cl)c1OC(C)C | inactive: -2.88%
23 | O=[As](O)(O)c1cccnc1 | inactive: -3.84%
24 | O=C(OC1CN2CCC1CC2)c1ccc(Cl)cc1 (stereo not given) | inactive: -2.11%
25 | O=[N+]([O-])c1ccc2c(c1)nnn2O | inactive: 0.55%
26 | CCOP1(=S)c2c(C)nn(CCC#N)c2N=C(c2ccc(F)cc2)N1C (stereo not given) | inactive: 4.21%
27 | Nc1ccccc1[As](=O)(O)c1ccccc1 | inactive: -4.63%

Row | Structure (SMILES) | inhibition
28 | O=C(O)COc1ccc([As](=O)(O)O)cc1[N+](=O)[O-] | inactive: -6.83%
29 | CS(=O)(=O)c1cc([N+](=O)[O-])c2no[n+]([O-])c2c1 | inactive: 0.43%
30 | O=P(Nc1nccs1)(c1ccccc1)c1nc2ccccc2s1 (stereo not given) | inactive: -1.36%
31 | O=P(Nc1nccs1)(Oc1ccccc1)Oc1ccccc1 | inactive: -0.43%
32 | CCOP1(=S)c2c(C)nn(CCC#N)c2N=C(c2ccccc2F)N1C (stereo not given) | inactive: -1.77%
33 | O=P1(Nc2ccc(Br)cn2)COc2ccccc2OC1 | inactive: -3.37%
34 | O=[As](O)(c1cccs1)c1cccs1 | inactive: 2.53%
35 | Cc1ccc(OCC(=O)OC2CN3CCC2CC3)cc1 (stereo not given) | inactive: 0.21%
36 | Nc1cccc([As](=O)(O)c2ccccc2)c1 | inactive: 0.56%
37 | O=P1(Nc2ncccn2)COc2ccccc2OC1 | inactive: -3.9%
38 | O=C(/C=C/c1ccccc1)OC1CN2CCC1CC2 (stereo not given) | inactive: -0.87%
39 | CN(C)C1(CNC(=O)c2ccc(S(C)(=O)=O)cc2)CCCCC1 | inactive: 4.94%
40 | CC1CCC(C(C)C)C(OP(=O)(Nc2ccccn2)c2ccccc2)C1 (stereo not given) | inactive: 4.45%
41 | Cc1ccc(C(=O)OC2CN3CCC2CC3)cc1 (stereo not given) | inactive: 3.12%
42 | Cc1nn(-c2ccccc2)c2c1P(=O)(N1CCOCC1)N(C)C(c1ccccc1)=N2 (stereo not given) | inactive: -2.69%
43 | CC1(CBr)Cn2c(nc3ccccc3c2=O)S1 (stereo not given) | inactive: -6.28%
44 | O=[As](O)(c1ccccc1Br)c1ccccc1Br | inactive: 3.23%
45 | CC(C)/C=N\N=C(\N)N[N+](=O)[O-] | inactive: 0.47%
46 | CN(C(=O)Cc1ccc(Cl)c(Cl)c1)[C@@H]1CCCC[C@H]1N1CCCC1 | inactive: 0.93%
47 | CC(C)(C)C(=O)NC(Sc1ncccn1)C(Cl)(Cl)Cl (stereo not given) | inactive: -5.83%
48 | Clc1n[nH]nc1-c1nn[nH][15n]1 | inactive: -0.87%
49 | CCOP(=O)(Nc1ccc(C)cn1)OCC | inactive: -1.65%
50 | CCOP(=O)(NC(=NC(C)c1ccccc1)NC(C)c1ccccc1)OCC (stereo not given) | inactive: -1.35%
51 | O=P1(Nc2ccccn2)COc2ccccc2OC1 | inactive: -4.44%
52 | CCC1=CC2Cc3nc4ccc(Cl)cc4c(N)c3C(C1)C2 (stereo not given) | inactive: -5.84%
53 | CCC(C)N(CC(C)C)C(=S)SC(NC(C)=O)C(Cl)(Cl)Cl (stereo not given) | inactive: -5.01%
54 | CCOC(=O)c1ccc(NC(=O)C(C)(CCl)SC)cc1 (stereo not given) | inactive: -1.31%

Row | Structure (SMILES) | inhibition
55 | O=C(OC1CN2CCC1CC2)c1cccc([N+](=O)[O-])c1 (stereo not given) | inactive: 2.65%
56 | O=C(Nc1ccncc1[N+](=O)[O-])c1ccc([N+](=O)[O-])cc1[N+](=O)[O-] | inactive: 1.74%
57 | O=C(COc1ccccc1)OC1CN2CCC1CC2 (stereo not given) | inactive: 1.34%
58 | COP1(=S)c2c(C)nn(CCC#N)c2N=C(c2ccc(F)cc2)N1C (stereo not given) | inactive: 2.98%
59 | O=[N+]([O-])c1ccc(Nc2ccc(Oc3ccc([N+](=O)[O-])cc3[N+](=O)[O-])cc2)c([N+](=O)[O-])c1 | inactive: 2.14%
60 | O=P(Nc1ccccn1)(c1cccc2ccccc12)c1cccc2ccccc12 | inactive: 3.65%
61 | Cc1cc(SC(NC=O)C(Cl)(Cl)Cl)ncn1 (stereo not given) | inactive: 0.53%
62 | CCOC(=O)Nc1cccc([As](=O)(O)O)c1 | inactive: -3.2%
63 | Cc1cc(SC(NC(=O)c2ccccc2)C(Cl)(Cl)Cl)nc(C(C)C)n1 (stereo not given) | inactive: 5.86%
64 | CCCCOc1ccc(C(=O)NCC2(N3CCCCC3)CCCCC2)cc1OC | inactive: 0.23%
65 | CCOC(=O)Nc1ccc([As](=O)(O)O)c(O)c1 | inactive: 0.21%
66 | O=[N+]([O-])c1cc([N+](=O)[O-])c(-c2ccn[nH]2)s1 | inactive: -4.74%
67 | CCN(CC)C(=S)SC(NC=O)C(Cl)(Cl)Cl (stereo not given) | inactive: -0.85%
68 | CC(C)NC(=O)NP(=O)(Oc1ccccc1)Oc1ccccc1 | inactive: 0.2%
69 | CC(C)c1ccc(OP(=O)(Nc2ccccn2)Oc2ccccc2F)cc1 (stereo not given) | inactive: -1.04%
70 | ClCCSc1nnc(-c2cccnc2)o1 | inactive: -8.55%
71 | Cc1ccc2nc3c(c(C)c2c1)CC(C(Cl)Cl)S3 (stereo not given) | inactive: 4.03%
72 | Cc1ccc(OP(=O)(Nc2ccc([N+](=O)[O-])cn2)Oc2ccc(C)cc2)cc1 | inactive: -0.5%
73 | O=[As](O)(c1ccc(O)cc1)c1ccccc1O | inactive: -3.7%
74 | C[As](=O)(O)c1cccc(C(=O)O)c1 | inactive: 0.34%
75 | COc1ccc(N/C(=N/P(=O)(N2CCOCC2)N2CCOCC2)N2CCOCC2)cc1 | inactive: -0.9%
76 | COc1cc(I)ccc1[As](=O)(O)O | inactive: -0.5%
77 | COc1ccc2nc(NP(=O)(c3ccccc3)c3ccccc3)sc2c1 | inactive: -1.21%
78 | Cc1cc(=O)[nH]c(N[N+](=O)[O-])n1 | inactive: 4.69%
79 | O=C(OC1CN2CCC1CC2)C12CC3CC(CC(C3)C1)C2 (stereo not given) | inactive: 1.42%
80 | Cc1c2c(nc3ccccc13)SC(C(Cl)Cl)C2 (stereo not given) | inactive: -3.73%
